From ChEMBL document CHEMBL3994664, “Comparison of the anion inhibition profiles of the β- and γ-carbonic anhydrases from the pathogenic bacterium Burkholderia pseudomallei” (2017)

assay: Inhibition of Burkholderia pseudomallei recombinant carbonic anhydrase gamma incubated for 15 mins prior to testing by stopped flow CO2 hydration method

Row | SMILES | Ki [µM]
1 | O=[As](O)(O)c1ccccc1 | 49
2 | OB(O)c1ccccc1 | 74
3 | NS(=O)(=O)O | 83
4 | NS(N)(=O)=O | 77
